Values from PubChem BioAssay AID1259414 (Drosophila RNAi Screening Center, 2018)
In all, the deposit lists about 24,000 reagents; this is an unselected part of those with a known target gene and a result. Over the whole deposit, about 1,210 (5%) are marked active. 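Inactive calls also include excluded dsRNAs with several or no targets, genes unexpressed in JW18, and well A1, regardless of score.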 Names joined by + are all predicted targets of the reagent. No sequences are given here.

- Test: 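Fly genes that alter Wolbachia amount inside host cells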 (primary screen)
- Cell system: Drosophila JW18 cells infected with Wolbachia
- Reagent: long dsRNA against Drosophila genes, 0.25 µg dsRNA per well of a 384-well plate
- Timing: 5 days
- Treatment: cells persistently infected with Wolbachia before knock-down; no added drug
- Measurement: 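Imaged fluorescence in situ signal for Wolbachia 23S rRNA per DAPI-counted host cell, given as a robust z-score within each plate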
- Reading the numbers: Wolbachia per cell robust z: higher = more Wolbachia per host cell than the plate typical
- Call rule: 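Hit when robust z is 1.5 or more, or -1.5 or less, in at least two of three replicates; excludes dsRNAs with several or no targets, genes not expressed in JW18 and well A1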

Gene,PubChem SID,"Wolbachia per cell robust z, rep 1","Wolbachia per cell robust z, rep 2","Wolbachia per cell robust z, rep 3",activity call
CG34429 (GeneID 5740606),SID104189912,0.662,0.894,1.27,inactive
CG5770 (GeneID 37054),SID104186746,-0.183,-1.15,-0.709,inactive
CG5770 (GeneID 37054),SID104203118,0.636,-0.148,-2.11,inactive
CG2124 (GeneID 31989),SID104198000,-0.726,-0.142,-4.7,inactive
CG14563 (GeneID 40435),SID104191516,0.69,0.939,-0.571,inactive
CG15312 (GeneID 31940),SID104197792,1,0.425,-0.245,inactive
CG15312 (GeneID 31940),SID104205742,0.508,0.707,-0.678,inactive
CG31650 (GeneID 326150),SID104182932,1.16,1.66,1.51,active
CG31650 (GeneID 326150),SID104207516,-0.643,-1.13,-6.92,inactive
sncRNA:158 (GeneID 3772042),SID104215481,0.704,-1.09,-1.27,inactive
CG31100 (GeneID 41075),SID104194245,-0.917,1.02,1.27,inactive
CG31100 (GeneID 41075),SID104194247,-0.056,0.0263,-4.18,inactive
CG8993 (GeneID 38301),SID104188408,-0.894,-0.959,-0.396,inactive
CG8993 (GeneID 38301),SID104205862,0.215,-0.32,0.558,inactive
CG8993 (GeneID 38301),SID104218788,-1.5,-1.13,1.28,inactive
udt (GeneID 42809),SID104194006,0.818,0.0528,0.699,inactive
mRpL13 (GeneID 35145),SID104181868,-0.099,0.629,-0.17,inactive
mRpL13 (GeneID 35145),SID104208611,1.06,-0.634,0.482,inactive
CG34173 (GeneID 5740285),SID104216303,-0.648,-0.0424,-0.827,inactive
sra (GeneID 47384),SID104196807,0.396,0.154,0.684,inactive
Pgant3 (GeneID 35627),SID104185734,1.65,0.117,0.927,inactive
Pgant3 (GeneID 35627),SID104207796,1.45,0.117,0.593,inactive
Itpr (GeneID 40664),SID104192146,-0.696,-0.554,-0.654,inactive
Itpr (GeneID 40664),SID104207314,-1.07,-0.379,-0.686,inactive
CG6149 (GeneID 39277),SID104190385,-0.53,0.676,1.14,inactive
CG18747 (GeneID 59143),SID104195176,0.241,0.668,0.355,inactive
CG18747 (GeneID 59143),SID104204749,0.264,0.0407,0.633,inactive
CG5162 (GeneID 32709),SID104199727,-0.964,-0.558,0.367,inactive
CG17163 (GeneID 3354988),SID104200693,0.508,-0.472,0.564,inactive
CG1909 (GeneID 43800),SID104196942,-1.51,0.742,-5.06,active
CG10959 (GeneID 31743),SID104197561,1.18,0.883,-2.76,inactive
CG10959 (GeneID 31743),SID104207664,0.076,0.996,0.0199,inactive
mthl8 (GeneID 38013),SID104188003,-1.4,0.999,0.185,inactive
mthl8 (GeneID 38013),SID104188103,-0.23,0.695,-0.272,inactive
Trs23 (GeneID 34197),SID104182982,0.916,1.23,1.7,inactive
Trs23 (GeneID 34197),SID104207787,-0.571,-7.68,-0.307,inactive
CG7990 (GeneID 32909),SID104199088,-5.62,0.589,0.0967,inactive
CG7990 (GeneID 32909),SID104202552,0.943,0.851,-0.146,inactive
CG7990 (GeneID 32909),SID104205124,0.338,-0.72,1.16,inactive
sas (GeneID 40861),SID104192423,-0.913,0.449,-0.679,inactive
hpRNA:CR18854 (GeneID 10178800),SID104182494,-0.951,0.595,-0.4,inactive
hpRNA:CR18854 (GeneID 10178800),SID104208353,0.163,-0.315,-1.77,inactive
CG33627 (GeneID 3772219),SID104216450,-0.242,-1.1,-0.749,inactive
rhea (GeneID 38978),SID104191092,1,1.37,1.9,inactive
CG14830 + asRNA:CR43470,SID104205130,-2.88,-2.2,-1.27,inactive
CG6220 (GeneID 36520),SID104186761,0.863,0.806,0.662,inactive
CG11905 (GeneID 39895),SID104189655,0.806,-0.143,-2.78,inactive
CG11905 (GeneID 39895),SID104203348,0.363,-0.437,-0.695,inactive
Sgs5 (GeneID 42114),SID104196654,0.463,0.677,1.07,inactive
CG7384 (GeneID 34447),SID104182845,0.387,0.513,-0.285,inactive
CG42633 (GeneID 8674052),SID104195853,-0.45,0.622,1.02,inactive
CG42633 (GeneID 8674052),SID104218982,0.333,-2.78,0.836,inactive
CG14196 (GeneID 32915),SID104199343,1.53,-0.554,0.332,inactive
CG14196 (GeneID 32915),SID104204574,0.607,-0.14,-0.465,inactive
CR43669 + CR43670 + CR43671,SID104181348,0.526,-0.0772,0.604,inactive
CG32425 (GeneID 40273),SID104191556,0.139,-0.216,0.55,inactive
CG13203 (GeneID 36229),SID104186119,-7.56,-1.8,0.396,inactive
CG13203 (GeneID 36229),SID104207746,1.96,2.12,1.59,inactive
Set1 (GeneID 3354971),SID104216350,3.51,2.09,3.51,active
Ca-alpha1D (GeneID 34950),SID104183076,-0.638,1.23,0.118,inactive
CG12990 (GeneID 32747),SID104199302,0.0906,-2.14,-0.531,inactive
CG8245 (GeneID 35503),SID104184693,0.97,0.627,0.838,inactive
CG32638 (GeneID 318133),SID104198760,-0.338,-0.287,-0.948,inactive
CG6912 (GeneID 41820),SID104195924,-0.731,0.587,-1.89,inactive
CG17477 (GeneID 42067),SID104195031,-1.56,0.25,0.441,inactive
CG17477 (GeneID 42067),SID104205057,-0.102,0.124,-0.108,inactive
CG34460 (GeneID 5740316),SID104186766,-2.44,-1.11,-2.64,inactive
CG34460 (GeneID 5740316),SID104218992,0.162,-0.906,-0.535,inactive

Active calls, of those listed so far:
Gene,PubChem SID,"Wolbachia per cell robust z, rep 1","Wolbachia per cell robust z, rep 2","Wolbachia per cell robust z, rep 3",activity call
CG31650 (GeneID 326150),SID104182932,1.16,1.66,1.51,active
CG1909 (GeneID 43800),SID104196942,-1.51,0.742,-5.06,active
Set1 (GeneID 3354971),SID104216350,3.51,2.09,3.51,active
